A mixed list of measured activities; the numbers were collected in NIAID ChemDB.

Shared fields: tests in culture; agent: Candida albicans

ECn: concentration that inhibits the pathogen or its effect by n%.

compound	changes	tested at	measure	read by	strain or isolate	result
Cc1c(CN2CCN(C)CC2)cc(-c2ccccc2)n1-c1ccc(Cl)cc1Cl			Mean MIC		20 strains	43.5 µg/mL
Clc1cccc(Cl)c1COc1ccc(C(c2nccc3ccccc23)n2ccnc2)cc1			Mean MIC		17 strains	≥256 µg/mL
CCCCCCCCCCCCn1cc[n+](COCCCCCOC[n+]2ccn(CCCCCCCCCCCC)c2)c1			MIC100	agar diffusion	ATCC 90028	30 µM
CCC(C)n1ncn(-c2ccc(N3CCN(c4ccc(OC[C@H]5CO[C@](Cn6cncn6)(c6ccc(Cl)cc6Cl)O5)cc4)CC3)cc2)c1=O			Mean MIC50			0.74 µg/mL
CCOC(=O)C1C(c2cc3ccccc3nc2Cl)C2=C(CCCC2=O)N(c2cccnc2)C1N			MIC99	broth dilution	MTCC 227	250 µg/mL
Fc1ccc(COc2ccc(C(c3ccc4ccccc4c3)n3ccnc3)cc2)cc1.O=[N+]([O-])O			MIC90		16 strains	≥256 µg/mL
O=C(Nc1cccc(Cn2ccnc2)c1)c1cccc([N+](=O)[O-])c1			Mean MIC		27 strains	200 µg/mL
C[C@H]1[C@H](O)[C@@H](C)/C=C/C=C/C=C/C=C/C=C/C=C/C=C/[C@H](O[C@@H]2O[C@H](C)[C@@H](O)[C@H](N)[C@@H]2O)C[C@@H]2O[C@](O)(C[C@@H](O)C[C@@H](O)CC[C@H](O)[C@@H](O)C[C@@H](O)CC(=O)O[C@H]1C)C[C@H](O)[C@H]2C(=O)O	cph1/efg1	1 µg/mL	inhibition	broth dilution	ATCC 90028	100%
Cc1c(CN(C)C)cc(-c2ccccc2)n1-c1ccc(Cl)cc1			Mean MIC		20 strains	51.9 µg/mL
CCOC(=O)C1C(c2cc3cc(OC)ccc3nc2Cl)C2=C(CCCC2=O)N(c2cccnc2)C1N			MIC99	broth dilution	MTCC 227	>1000 µg/mL
Cc1c(CN2CCCC2)cc(-c2ccc(Cl)cc2)n1-c1ccc(Cl)cc1			Mean MIC		20 strains	59.8 µg/mL
O=C(Nc1ccccc1Cn1ccnc1)c1ccc([N+](=O)[O-])cc1			Mean MIC		27 strains	150 µg/mL
Cc1ccc(-c2ccc(Cl)cc2)n1-c1ccc(Cl)cc1Cl			Mean MIC		20 strains	>200 µg/mL
CCCCCCn1cc[n+](COCCCCCOC[n+]2ccn(CCCCCC)c2)c1			MIC100	agar diffusion	ATCC 90028	158 µM
Cc1c(CN2CCN(C)CC2)cc(-c2ccc(Cl)cc2)n1-c1ccc([N+](=O)[O-])cc1			Mean MIC		20 strains	100 µg/mL
COc1ccc(-c2oc3ccc(C)cc3c2C(=O)c2cc(OC)cc(OC)c2)cc1			EC80	broth dilution		>200 µg/mL
Cc1c(CN2CCCC2)cc(-c2ccccc2)n1-c1ccc(Cl)cc1Cl			Mean MIC		20 strains	50 µg/mL
CCCCCCCCn1cc[n+](COCCCOC[n+]2ccn(CCCCCCCC)c2)c1			MIC100	agar diffusion	ATCC 90028	9 µM
O=C(NCc1ccc(F)cc1)c1ccccc1O			Geometric mean MIC		ATCC 44859	454.6 µM
CCCCCn1cc[n+](COCCCCCCOC[n+]2ccn(CCCCC)c2)c1			MIC100	agar diffusion	ATCC 90028	10 µM
Cc1ccc(-c2ccc(Cl)cc2)n1-c1ccccc1			Mean MIC		20 strains	>200 µg/mL
Fc1ccc(COc2ccc(C(c3nccc4ccccc34)n3ccnc3)cc2)c(F)c1			Mean MIC		16 strains	≥256 µg/mL
COC(=O)C1C(c2cc3cc(Cl)ccc3nc2Cl)C2=C(CCCC2=O)N(c2cccnc2)C1N			MIC99	broth dilution	MTCC 227	1000 µg/mL
CCCCCOc1ccc(-c2ccc(-c3ccc(C(=O)N[C@H]4C[C@@H](O)[C@@H](O)NC(=O)[C@@H]5[C@@H](O)[C@@H](C)CN5C(=O)[C@H]([C@H](C)O)NC(=O)[C@H]([C@H](O)[C@@H](O)c5ccc(O)cc5)NC(=O)[C@@H]5C[C@@H](O)CN5C(=O)[C@H]([C@H](C)O)NC4=O)cc3)cc2)cc1			MFC90		10 strains (fluconazole-resistant)	1 µg/mL
COc1ccc(-c2oc3ccc(C)cc3c2C(=O)c2cc(Cl)cc(Cl)c2)cc1			EC80	broth dilution		>200 µg/mL
OC(CN1CCN(c2ccc(OCc3ccncc3)cc2)CC1)(Cn1cncn1)c1ccc(F)cc1F			MIC80		SC5314F50	0.25 µg/mL
O=C(NCc1ccc(Cl)c(Cl)c1)c1ccccc1O			Geometric mean MIC		ATCC 44859	420.5 µM
O=C(Nc1ccccc1Cn1ccnc1)c1ccc(Cl)cc1Cl			Mean MIC		27 strains	123 µg/mL
Cc1cc(C=Nc2ccc(N=Cc3cc(C)cc(/C=N/Nc4nc5ccccc5s4)c3O)cc2)c(O)c(/C=C/Nc2nc3ccccc3s2)c1		10 µg/mL	inhibition	turbidity		1.35%
COc1ccc(-c2oc3ccc(C)cc3c2C(=O)c2ccc(Cl)cc2)cc1			EC80	broth dilution		>200 µg/mL
Fc1ccc(COc2ccc(C(c3nccc4ccccc34)n3ccnc3)cc2)cc1			Mean MIC		16 strains	≥256 µg/mL
Cc1ccc2nc(Cl)c(C3C4=C(CCCC4=O)N(c4cccnc4)C(N)C3C#N)cc2c1			MIC99	broth dilution	MTCC 227	1000 µg/mL
CC[C@@H]([C@H](C)O)n1ncn(-c2ccc(N3CCN(c4ccc(OC[C@@H]5CO[C@@](Cn6cncn6)(c6ccc(F)cc6F)C5)cc4)CC3)cc2)c1=O			MIC50	broth dilution / turbidity	SC5314	0.03 µg/mL
CCOC(=O)C1C(c2cc3cc(C)ccc3nc2Cl)C2=C(CCCC2=O)N(c2cccnc2)C1N			MIC99	broth dilution	MTCC 227	1000 µg/mL
C=CCc1ccc(O)c(OC)c1			MIC90	turbidity	2889	475 µg/mL
CCCCn1cc[n+](COCCCCCOC[n+]2ccn(CCCC)c2)c1			MIC100	agar diffusion	ATCC 90028	690 µM
COC(=O)C1C(c2cc3ccccc3nc2Cl)C2=C(CCCC2=O)N(c2cccnc2)C1N			MIC99	broth dilution	MTCC 227	250 µg/mL
COc1cc(C(=O)Nc2ccc(Cn3ccnc3)cc2)cc(OC)c1OC			Mean MIC		27 strains	200 µg/mL
Fc1ccccc1COc1ccc(C(c2nccc3ccccc23)n2ccnc2)cc1			Mean MIC		16 strains	≥256 µg/mL
CCCCn1cc[n+](COCCOC[n+]2ccn(CCCC)c2)c1			MIC100	agar diffusion	ATCC 90028	1634 µM
Cc1ccc(C(C)C)cc1O			MLC		H37	0.16–0.32 µg/mL
COc1ccc(-c2oc3ccc(C)cc3c2C(=O)c2ccc(O)c(I)c2)cc1			EC80	broth dilution		>200 µg/mL

Blank or dashed fields: not listed here. A number after MIC or MFC names an inhibition level or a share of isolates. Lines come from different laboratories, so protocols vary. Inhibition is in % at the dose shown (toxicity tests: loss of growth or viability). a–b is a range or a potency band.